{"source": "PubChem BioAssay AID1259414 (Drosophila RNAi Screening Center, 2018)", "aim": "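Fly genes that alter Wolbachia amount inside host cells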 (primary screen)", "system": "Drosophila JW18 cells infected with Wolbachia", "reagents": "long dsRNA against Drosophila genes, 0.25 µg dsRNA per well of a 384-well plate", "time to read-out": "5 days", "challenge": "cells persistently infected with Wolbachia before knock-down; no added drug", "measured": "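Imaged fluorescence in situ signal for Wolbachia 23S rRNA per DAPI-counted host cell, given as a robust z-score within each plate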", "scale": "Wolbachia per cell robust z: higher = more Wolbachia per host cell than the plate typical", "hit rule": "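Hit when robust z is 1.5 or more, or -1.5 or less, in at least two of three replicates; excludes dsRNAs with several or no targets, genes not expressed in JW18 and well A1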", "note": "In all, the deposit lists about 24,000 reagents; shown is a random part of those with a known target gene and a result. Of all reagents, about 1,210 (5%) were called active. 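Inactive calls also include excluded dsRNAs with several or no targets, genes unexpressed in JW18, and well A1, regardless of score.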 Entries without a mark were called inactive. Names joined by + are all predicted targets of the reagent."}
{"gene knocked down": "Vps26 (GeneID 31144)", "dsRNA": "DRSC18555", "Wolbachia per cell robust z, rep 1": 0.726, "Wolbachia per cell robust z, rep 2": -0.521, "Wolbachia per cell robust z, rep 3": 0.456}
{"gene knocked down": "Vps26 (GeneID 31144)", "dsRNA": "DRSC23556", "Wolbachia per cell robust z, rep 1": 2.5, "Wolbachia per cell robust z, rep 2": -1.02, "Wolbachia per cell robust z, rep 3": 0.578}
{"gene knocked down": "CG2663 (GeneID 40649)", "dsRNA": "DRSC12314", "Wolbachia per cell robust z, rep 1": -2.06, "Wolbachia per cell robust z, rep 2": -7.51, "Wolbachia per cell robust z, rep 3": -0.399}
{"gene knocked down": "CG2663 (GeneID 40649)", "dsRNA": "DRSC28701", "Wolbachia per cell robust z, rep 1": -6.14, "Wolbachia per cell robust z, rep 2": 0.388, "Wolbachia per cell robust z, rep 3": -2.08}
{"gene knocked down": "CG17560 (GeneID 42022)", "dsRNA": "DRSC15242", "Wolbachia per cell robust z, rep 1": -0.561, "Wolbachia per cell robust z, rep 2": 0.128, "Wolbachia per cell robust z, rep 3": 0.359}
{"gene knocked down": "CG11380 (GeneID 31065)", "dsRNA": "DRSC23223", "Wolbachia per cell robust z, rep 1": -3.5, "Wolbachia per cell robust z, rep 2": 0.802, "Wolbachia per cell robust z, rep 3": 0.868}
{"gene knocked down": "CG11380 (GeneID 31065)", "dsRNA": "DRSC29190", "Wolbachia per cell robust z, rep 1": 0.0781, "Wolbachia per cell robust z, rep 2": -0.00896, "Wolbachia per cell robust z, rep 3": -1.63}
{"gene knocked down": "Cpr72Ea (GeneID 39814)", "dsRNA": "DRSC10451", "Wolbachia per cell robust z, rep 1": -0.919, "Wolbachia per cell robust z, rep 2": -0.0215, "Wolbachia per cell robust z, rep 3": -2.24}
{"gene knocked down": "Myo10A (GeneID 32028)", "dsRNA": "DRSC19834", "Wolbachia per cell robust z, rep 1": -0.284, "Wolbachia per cell robust z, rep 2": 0.954, "Wolbachia per cell robust z, rep 3": -2.56}
{"gene knocked down": "Myo10A (GeneID 32028)", "dsRNA": "DRSC19837", "Wolbachia per cell robust z, rep 1": 0.774, "Wolbachia per cell robust z, rep 2": 0.486, "Wolbachia per cell robust z, rep 3": 0.25}
{"gene knocked down": "Myo10A (GeneID 32028)", "dsRNA": "DRSC23140", "Wolbachia per cell robust z, rep 1": 0.886, "Wolbachia per cell robust z, rep 2": 1.14, "Wolbachia per cell robust z, rep 3": 1.3}
{"gene knocked down": "Myo10A (GeneID 32028)", "dsRNA": "DRSC27994", "Wolbachia per cell robust z, rep 1": -0.169, "Wolbachia per cell robust z, rep 2": -0.157, "Wolbachia per cell robust z, rep 3": -0.664}
{"gene knocked down": "CG4362 (GeneID 42410)", "dsRNA": "DRSC15567", "Wolbachia per cell robust z, rep 1": 0.366, "Wolbachia per cell robust z, rep 2": -0.431, "Wolbachia per cell robust z, rep 3": 1.31}
{"gene knocked down": "Cdk9 (GeneID 37586)", "dsRNA": "DRSC04601", "Wolbachia per cell robust z, rep 1": "1.81 (active)", "Wolbachia per cell robust z, rep 2": 1.68, "Wolbachia per cell robust z, rep 3": 2.37}
{"gene knocked down": "CG31381 + CG11089", "dsRNA": "DRSC13690", "Wolbachia per cell robust z, rep 1": -1.52, "Wolbachia per cell robust z, rep 2": -0.337, "Wolbachia per cell robust z, rep 3": -0.573}
{"gene knocked down": "CG42446 + CG17931", "dsRNA": "DRSC15293", "Wolbachia per cell robust z, rep 1": -3.56, "Wolbachia per cell robust z, rep 2": -1.65, "Wolbachia per cell robust z, rep 3": 0.166}
{"gene knocked down": "CG17129 (GeneID 38080)", "dsRNA": "DRSC08508", "Wolbachia per cell robust z, rep 1": -0.514, "Wolbachia per cell robust z, rep 2": -0.79, "Wolbachia per cell robust z, rep 3": -0.45}
{"gene knocked down": "HDAC1 (GeneID 38565)", "dsRNA": "DRSC08696", "Wolbachia per cell robust z, rep 1": 0.418, "Wolbachia per cell robust z, rep 2": 2.18, "Wolbachia per cell robust z, rep 3": -0.549}
{"gene knocked down": "HDAC1 (GeneID 38565)", "dsRNA": "DRSC40782", "Wolbachia per cell robust z, rep 1": 0.329, "Wolbachia per cell robust z, rep 2": 1.25, "Wolbachia per cell robust z, rep 3": 0.928}
{"gene knocked down": "CG9813 (GeneID 41644)", "dsRNA": "DRSC16569", "Wolbachia per cell robust z, rep 1": -3.6, "Wolbachia per cell robust z, rep 2": -0.848, "Wolbachia per cell robust z, rep 3": -0.773}
{"gene knocked down": "CG9813 (GeneID 41644)", "dsRNA": "DRSC26207", "Wolbachia per cell robust z, rep 1": 0.539, "Wolbachia per cell robust z, rep 2": -0.0711, "Wolbachia per cell robust z, rep 3": -0.201}
{"gene knocked down": "CG12236 (GeneID 31523)", "dsRNA": "DRSC17831", "Wolbachia per cell robust z, rep 1": -3.75, "Wolbachia per cell robust z, rep 2": 0.74, "Wolbachia per cell robust z, rep 3": 0.488}
{"gene knocked down": "CG12236 (GeneID 31523)", "dsRNA": "DRSC25773", "Wolbachia per cell robust z, rep 1": "-1.51 (active)", "Wolbachia per cell robust z, rep 2": -1.72, "Wolbachia per cell robust z, rep 3": -1.46}
{"gene knocked down": "BomS2 (GeneID 49802)", "dsRNA": "DRSC21488", "Wolbachia per cell robust z, rep 1": -1.25, "Wolbachia per cell robust z, rep 2": -0.873, "Wolbachia per cell robust z, rep 3": -1.34}
{"gene knocked down": "CG15461 (GeneID 50122)", "dsRNA": "DRSC20532", "Wolbachia per cell robust z, rep 1": -0.964, "Wolbachia per cell robust z, rep 2": 0.252, "Wolbachia per cell robust z, rep 3": 0.202}
{"gene knocked down": "ND-B16.6 (GeneID 31578)", "dsRNA": "DRSC18306", "Wolbachia per cell robust z, rep 1": -0.276, "Wolbachia per cell robust z, rep 2": 1.01, "Wolbachia per cell robust z, rep 3": -0.338}
{"gene knocked down": "ND-B16.6 (GeneID 31578)", "dsRNA": "DRSC22600", "Wolbachia per cell robust z, rep 1": 0.58, "Wolbachia per cell robust z, rep 2": 0.747, "Wolbachia per cell robust z, rep 3": -0.828}
{"gene knocked down": "ND-B16.6 (GeneID 31578)", "dsRNA": "DRSC26200", "Wolbachia per cell robust z, rep 1": -0.0761, "Wolbachia per cell robust z, rep 2": -0.544, "Wolbachia per cell robust z, rep 3": -0.82}
{"gene knocked down": "CG6426 (GeneID 36891)", "dsRNA": "DRSC06985", "Wolbachia per cell robust z, rep 1": 0.87, "Wolbachia per cell robust z, rep 2": -0.512, "Wolbachia per cell robust z, rep 3": -0.0497}
{"gene knocked down": "Uhg1 (GeneID 3772106)", "dsRNA": "DRSC26214", "Wolbachia per cell robust z, rep 1": -1.09, "Wolbachia per cell robust z, rep 2": -2.61, "Wolbachia per cell robust z, rep 3": 0.076}

4 successive reagents already listed:
{"gene knocked down": "CG2663 (GeneID 40649)", "dsRNA": "DRSC28701", "Wolbachia per cell robust z, rep 1": -6.14, "Wolbachia per cell robust z, rep 2": 0.388, "Wolbachia per cell robust z, rep 3": -2.08}
{"gene knocked down": "CG17560 (GeneID 42022)", "dsRNA": "DRSC15242", "Wolbachia per cell robust z, rep 1": -0.561, "Wolbachia per cell robust z, rep 2": 0.128, "Wolbachia per cell robust z, rep 3": 0.359}
{"gene knocked down": "CG11380 (GeneID 31065)", "dsRNA": "DRSC23223", "Wolbachia per cell robust z, rep 1": -3.5, "Wolbachia per cell robust z, rep 2": 0.802, "Wolbachia per cell robust z, rep 3": 0.868}
{"gene knocked down": "CG11380 (GeneID 31065)", "dsRNA": "DRSC29190", "Wolbachia per cell robust z, rep 1": 0.0781, "Wolbachia per cell robust z, rep 2": -0.00896, "Wolbachia per cell robust z, rep 3": -1.63}
